Pooled drug test results. Numbers come from NIAID ChemDB, via PubChem.

All rows: growth or infection tests; agent: Aspergillus niger

MIC50, MIC90 and the like: level of inhibition, or share of isolates inhibited.

| smiles | strain | method | measure | dose | value |
|---|---|---|---|---|---|
| CCCCC(CC)COC(=O)c1ccccc1C(=O)OCC(CC)CCCC |  | agar diffusion / agar | zone | 10000 µg/mL | 0.64 mm |
| CC(=O)c1cn(Cc2nnn(Cc3nnc(SC4OC(O)C(O)C(O)C4O)n3-c3ccc(Cl)cc3)n2)c2ccccc12 |  | agar | MIC99 |  | 100 µg/mL |
| Cc1ccc(C(C)C)c(O)c1 |  |  | EC50 |  | 0.6 µg/mL |
| CN(C/C=C/C#CC(C)(C)C)Cc1cccc2ccccc12 | ATCC 9029 | broth dilution | MIC100 |  | 1.56 µg/mL |
| O=C1C(c2ccc(Cl)cc2)=[N+]([O-])c2cccnc21 |  |  | MFC |  | >500 µg/mL |
| C(/C=C/c1ccccc1)=NCCNCCN=C/C=C/c1ccccc1.N#C[S][Hg][S]C#N |  | agar diffusion | zone | 10000 µg/mL | 24 mm |
| CC1=C(Nc2ccccc2)C(=O)c2ccccc2C1=O | MTCC 404 | broth dilution | MIC100 |  | 125 µg/mL |
| CCC(C)CC(C)CCCCCCCCC(=O)N[C@H]1C[C@@H](O)[C@H](NCCN)NC(=O)[C@@H]2[C@@H](O)CCN2C(=O)[C@H]([C@H](O)CCN)NC(=O)[C@H]([C@H](O)[C@@H](O)c2ccc(O)cc2)NC(=O)[C@@H]2C[C@@H](O)CN2C(=O)[C@H]([C@@H](C)O)NC1=O |  |  | MIC50 |  | 0.06–0.25 µg/mL |
| CN(C)C1=NC(=O)/C(=C/c2ccccc2)S1 | ATCC 9029 | broth dilution | MIC100 |  | >250 µg/mL |
| C(/C=C/c1ccccc1)=NCCNCCN=C/C=C/c1ccccc1.[Br][Hg][Br] |  | agar diffusion | zone | 10000 µg/mL | 22 mm |
| OC(Cn1cncn1)(Cn1cncn1)c1ccc(F)cc1F | CCAM 080002 | broth dilution | MIC100 |  | 1.25 µg/mL |
| C[C@H]1[C@H](O)[C@@H](C)/C=C/C=C/C=C/C=C/C=C/C=C/C=C/[C@H](O[C@@H]2O[C@H](C)[C@@H](O)[C@H](N)[C@@H]2O)C[C@@H]2O[C@](O)(C[C@@H](O)C[C@@H](O)CC[C@H](O)[C@@H](O)C[C@@H](O)CC(=O)O[C@H]1C)C[C@H](O)[C@H]2C(=O)O | ATCC 9029 | broth dilution | MIC100 |  | 0.5 µg/mL |
| [Al]#[P] |  | agar | MFC |  | >5 µg/mL |
| CC(C)=CCC/C(C)=C/CO | NRRL 501 | broth dilution | MFC |  | 288 µg/mL |
| O=C1C=C(N2CCOCC2)C(=O)c2ccccc21 | MTCC 404 | broth dilution | MIC100 |  | 62.5 µg/mL |
| Cc1nc(Nc2ccccc2)nc(C)c1C#N |  |  | zone | 1000 µg/mL | 2.5 mm |
| C[C@H]1[C@H](O)[C@@H](C)/C=C/C=C/C=C/C=C/C=C/C=C/C=C/[C@H](O[C@@H]2O[C@H](C)[C@@H](O)[C@H](N)[C@@H]2O)C[C@@H]2O[C@](O)(C[C@@H](O)C[C@@H](O)CC[C@H](O)[C@@H](O)C[C@@H](O)CC(=O)O[C@H]1C)C[C@H](O)[C@H]2C(=O)O |  |  | MIC50 |  | 0.5–1 µg/mL |
| CC1=CC=C(C(C)C)CC1 |  |  | EC50 |  | 1.2 µg/mL |
| CN(C/C=C/C#CC(C)(C)C)Cc1cccc2ccccc12 |  | broth dilution / agar | MIC100 |  | 200 µg/mL |
| COc1ccc(C2=[N+]([O-])c3ccccc3C2=O)cc1 |  |  | MFC |  | >500 µg/mL |
| CC(=O)N(c1ccccc1)c1nc(C)cc(C)n1 |  |  | zone | 1000 µg/mL | 3.4 mm |
| C[C@@H]1[C@H](O)[C@@H](C)/C=C/C=C/CC/C=C/C=C/C=C/C=C/C(O[C@H]2O[C@H](C)[C@@H](O)[C@H](N)[C@@H]2O)CC2O[C@](O)(CC(O)C(O)CCC(O)CC(O)CC(O)CC(=O)O[C@H]1C)CC(O)C2C(=O)O | ATCC 16404 | broth dilution | MFC99.9 |  | 0.78 µg/mL |
| CNC1=CC(=O)c2ccccc2C1=O | ATCC 404 | broth dilution | MIC100 |  | 62.5 µg/mL |
| CO[C@H]1O[C@@H](Oc2cc(O)c3c(=O)c(-c4ccc(O)cc4)coc3c2)[C@H](O)[C@@H](O)[C@@H]1O |  |  | inhibition | 1000 µg/mL | 85% |
| CC[C@@H]([C@H](C)O)n1ncn(-c2ccc(N3CCN(c4ccc(OC[C@@H]5CO[C@@](Cn6cncn6)(c6ccc(F)cc6F)C5)cc4)CC3)cc2)c1=O |  |  | MIC50 |  | 0.25–0.5 µg/mL |
| O=C1C(c2ccc(Cl)cc2)=[N+]([O-])c2cc[n+]([O-])cc21 |  |  | MFC |  | >500 µg/mL |
| Cc1cc(CBr)nc(Nc2ccccc2)n1 |  |  | zone | 10 µg/mL | 1.5 mm |
| Nc1[nH]c(=O)ncc1F |  |  | MIC50 |  | >64 µg/mL |
| O=C1C(c2ccc(Oc3ccccc3)cc2)=[N+]([O-])c2ccccc21 |  |  | MFC |  | >500 µg/mL |
| O=C/C=C/c1ccccc1 | IOA-3 | broth dilution | MFC |  | 160 µg/mL |
| COc1ccc([Se][Se]c2ccc(OC)cc2)cc1 |  | broth dilution | MFC |  | >64 µg/mL |

Repeating the final 2 entries:

smiles	strain	method	measure	dose	value
O=C/C=C/c1ccccc1	IOA-3	broth dilution	MFC		160 µg/mL
COc1ccc([Se][Se]c2ccc(OC)cc2)cc1		broth dilution	MFC		>64 µg/mL

Inhibition is in % at the dose shown (toxicity tests: loss of growth or viability). a–b is a range or a potency band. ECn is the concentration giving n% inhibition of infection, replication or growth. Zone: diameter of growth inhibition. Blank or dashed fields: not listed here. Rows are shuffled and stem from different studies.